Laboratory results reported in PMC8324038 (ACS infectious diseases, 2021).

Columns and labels:
[1] = biological target: T1, purified R220A variant of PenA1 (Burkholderia multivorans, UniProt A0A0H3KN52, R233A); experiment: biochemical
[2] = biological target: T1, purified R220A variant of PenA1; conditions: R220A vs PenA1
[3] = biological target: T1, purified R220A variant of PenA1; conditions: for k2/K fold decrease: R220A vs PenA1; for k2/K: purified R220A, acylation rate (kinact/KI or k2/K), nitrocefin 100 μM reporter
[4] = biological target: T1, purified R220A variant of PenA1; conditions: R220A vs PenA1; remark: listed apart in the source
[5] = tested on: O=C(Cc1cccs1)N[C@@H]1C(=O)N2C(C(=O)O)=C(/C=C/c3ccc([N+](=O)[O-])cc3[N+](=O)[O-])CS[C@H]12; experiment: cells, lysate or membranes named; conditions: other: R220A variant; used for correction of Ki-app; pH 7.4

| Compound | Ki [1] | tn (15 min) fold decrease [2] | k2/K fold decrease [3] | k2/K [3] | Ki-app fold increase [4] | Ki-app fold increase ([4]; listed as Vaborbactam) | tn (15 min) fold change, increased (DBOs, footnote b) ([2]; increased not decreased) | Km [5] |
| --- | --- | --- | --- | --- | --- | --- | --- | --- |
| O=C(O)[C@H]1/C(=C/CO)O[C@@H]2CC(=O)N21 [clavulanic acid] | 26 ± 3 µM | 2.5 fold |  |  |  |  |  |  |
| O=C(O)C[C@@H]1CC[C@H](NC(=O)Cc2cccs2)B(O)O1 [vaborbactam] | 108 ± 10 µM | 2 fold | 4 fold | 8.4 ± 2.0 × 10^1 M^−1 s^−1 | 3 fold | 2 fold |  |  |
| Cn1cc[n+](C[C@@]2(C)[C@H](C(=O)[O-])N3C(=O)C[C@H]3S2(=O)=O)n1 [enmetazobactam] |  | 10 fold | 77 fold | 8.1 ± 1.5 × 10^3 M^−1 s^−1 | 22 fold |  |  |  |
| C[C@]1(Cn2ccnn2)[C@H](C(=O)O)N2C(=O)C[C@H]2S1(=O)=O [tazobactam] | 36 ± 10 µM | 5 fold |  |  |  |  |  |  |
| O=C(NC1CCNCC1)[C@@H]1CC[C@@H]2CN1C(=O)N2OS(=O)(=O)O [relebactam] | 110 ± 17 µM |  |  |  |  |  | 5^b fold |  |
| purified R220A variant of PenA1 (Burkholderia multivorans ATCC 17616; R233A) |  |  |  |  |  |  |  | 193 µM |

Like-named read-outs stand apart in the source and are kept apart here.
